Measurements published in US20230175044.
Where a protein sequence is shown, tags need not be part of it.

Molecular target: T1, PstI (UniProt P00640)
T1 sequence (looked up, limits assumed): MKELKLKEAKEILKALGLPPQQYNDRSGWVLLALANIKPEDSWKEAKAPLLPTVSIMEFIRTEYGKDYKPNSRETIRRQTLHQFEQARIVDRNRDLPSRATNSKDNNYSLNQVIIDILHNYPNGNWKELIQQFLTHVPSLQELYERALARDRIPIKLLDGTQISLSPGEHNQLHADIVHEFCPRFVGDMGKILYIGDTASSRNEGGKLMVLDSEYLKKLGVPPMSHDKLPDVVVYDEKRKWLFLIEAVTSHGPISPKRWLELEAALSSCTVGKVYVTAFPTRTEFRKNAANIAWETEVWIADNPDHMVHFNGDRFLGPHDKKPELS
Assay: enzyme reaction in vitro
Details: electrochemical turn-on; PURExpress, 37 C; little crosstalk; protein translated in vitro; label: 3' methylene blue on reporter; only the site is given

Sequence: GTTCTGAAGCTCCTGCAGGTGACATGCCT (double strand) [PstI reporter/inhibitor duplex]
- activity on this sequence: active
